A mixed list of measured activities; the numbers were collected in NIAID ChemDB.

All rows: growth or infection tests; species: Mycobacterium tuberculosis

Inhibition is in % at the dose shown (toxicity tests: loss of growth or viability). MIC bound comes from a single tested concentration. An empty or dashed field is not shown. ECn is the concentration giving n% inhibition of infection, replication or growth. A number after MIC or MFC names an inhibition level or a share of isolates. Conditions beyond the fields shown may differ between rows.

CO[C@H]1/C=C/O[C@@]2(C)Oc3c(C)c(O)c4c(O)c(c5c(c4c3C2=O)NC2(CCN(CC(C)C)CC2)N=5)=NC(=O)/C(C)=C\C=C\[C@H](C)[C@H](O)[C@@H](C)[C@@H](O)[C@@H](C)[C@H](OC(C)=O)[C@@H]1C ; strain or isolate: CSU15 ; endpoint: MIC ; result: ≤0.125 µg/mL
NC[C@H]1O[C@H](O[C@H]2[C@H](O)[C@@H](O[C@H]3O[C@H](CO)[C@@H](O)[C@H](N)[C@H]3O)[C@H](N)C[C@@H]2N)[C@H](O)[C@@H](O)[C@@H]1O ; strain or isolate: TN3432 (W) ; endpoint: MIC ; result: >256 µg/mL
CC[C@@H](CO)NCCN[C@@H](CC)CO ; strain or isolate: MDR7 ; method: broth dilution / resazurin ; endpoint: MIC ; result: 1 µg/mL
CC1COc2c(N3CCN(C)CC3)c(F)cc3c(=O)c(C(=O)O)cn1c23 ; strain or isolate: 001-011 (drug-resistant) ; endpoint: MIC ; result: 0.75 µg/mL
COc1ccc(/C=N\NS(=O)(=O)c2ccc(NC(C)=O)cc2)cc1 ; endpoint: MIC ; result: >200 µg/mL
C[C@@H]1CN(c2c(F)c(N)c3c(=O)c(C(=O)O)cn(C4CC4)c3c2F)C[C@H](C)N1 ; strain or isolate: CSU12 ; endpoint: MIC ; result: ≤0.125 µg/mL
CCCCC(CC)CN1CN(CC(CC)CCCC)CC(C)(NCCNCCc2ccccc2F)C1 ; endpoint: MIC ; result: 25 µM
CCOC(=O)Nc1cc2nc(C)c(-c3ccc(O)cc3)nc2c(N)n1 ; strain or isolate: H37Rv ; endpoint: EC50 ; result: >12.5 µg/mL
CC1CN(c2cc3c(cc2F)c(=O)c(C(=O)O)cn3-c2ccc(F)cc2F)CCN1 ; strain or isolate: ATCC35838 ; endpoint: MBC ; result: 1 µg/mL
CCCCCN1C(=O)c2cc(Cl)nnc2Oc2ccccc21 ; strain or isolate: H37Rv ; method: BACTEC ; endpoint: EC50 ; result: >12.5 µg/mL
COc1ccc(S(=O)(=O)NC(=S)S)cc1 ; strain or isolate: CS-R ; endpoint: MIC ; result: >12.8 µg/mL
COc1ccc2c(NN)cc(C)nc2c1 ; strain or isolate: H37Rv ; cell line: VERO ; endpoint: MIC ; result: 12.5 µg/mL
CO[C@H]1/C=C/O[C@@]2(C)Oc3c(C)c(O)c4c(O)c(c5c(c4c3C2=O)NC2(CCN(CC(C)C)CC2)N=5)=NC(=O)/C(C)=C\C=C\[C@H](C)[C@H](O)[C@@H](C)[C@@H](O)[C@@H](C)[C@H](OC(C)=O)[C@@H]1C ; strain or isolate: 2225 (rifampicin-resistant) ; endpoint: MIC ; result: >2 µg/mL
NC1CCN(c2nc3c(cc2F)c(=O)c(C(=O)O)cn3-c2ccc(F)cc2F)C1 ; strain or isolate: H37Rv ; endpoint: MBC ; result: >8 µg/mL
C/C(=N\NC(=O)c1ccncc1)c1ccccc1F ; strain or isolate: Erdman ; endpoint: MIC ; result: 0.39 µg/mL
CO[C@H]1/C=C/O[C@@]2(C)Oc3c(C)c(O)c4c(O)c(c(/C=N/N5CCN(C/C=C/c6ccccc6)CC5)c(O)c4c3C2=O)NC(=O)/C(C)=C\C=C\[C@H](C)[C@H](O)[C@@H](C)[C@@H](O)[C@@H](C)[C@H](OC(C)=O)[C@@H]1C ; strain or isolate: MTB36 (INH-R) ; endpoint: MIC ; result: ≤0.06 µg/mL
CC(=O)Nc1ccc(/C=N/N=C/c2ccc(NC(C)=O)cc2)cc1 ; endpoint: MIC ; result: >200 µg/mL
CCCCC(CC)CN1CN(CC(CC)CCCC)CC(C)(NCCNCc2ccc(C)cc2)C1 ; endpoint: MIC ; result: 25 µM
CCOc1ccc2c(N/N=C/c3ccc(N(CC)CC)cc3)ccnc2c1 ; strain or isolate: H37Rv ; cell line: VERO ; endpoint: inhibition ; dose: 12.5 µg/mL ; result: 100%
O=C(NNCc1ccccc1)c1ccncc1 ; strain or isolate: Ethionamide-resistant ; endpoint: MIC ; result: >6.25 µg/mL
CC(=O)Nc1ccc(/C=N/NC(=O)c2ccccc2Cl)cc1 ; endpoint: MIC ; result: 100 µg/mL
CO[C@H]1/C=C/O[C@@]2(C)Oc3c(C)c(O)c4c(=O)c(c5oc6cc(N7CCN(CC(C)C)CC7)cc(=O)c6nc5c4c3=C2O)NC(=O)/C(C)=C\C=C\[C@H](C)[C@H](O)[C@@H](C)[C@@H](O)[C@@H](C)[C@H](OC(C)=O)[C@@H]1C ; strain or isolate: 2237 (rifampicin-susceptible) ; endpoint: MIC ; result: 0.0078 µg/mL
C[C@H]1COc2c(N3CCN(C)CC3)c(F)cc3c(=O)c(C(=O)O)cn1c23 ; strain or isolate: Clinical isolate BRF 7 ; changes: SM-resistant ; method: resazurin ; endpoint: MIC ; result: 0.25 µg/mL
CC[C@H]1OC(=O)[C@H](C)[C@@H](O[C@H]2C[C@@](C)(OC)[C@@H](O)[C@H](C)O2)[C@H](C)[C@@H](O[C@@H]2O[C@H](C)C[C@H](N(C)C)[C@H]2O)[C@](C)(O)C[C@@H](C)CN(C)[C@H](C)[C@@H](O)[C@]1(C)O ; strain or isolate: MDR ; endpoint: MBC90 ; result: >8 µg/mL
Cc1ccc2c(c1)N(CCC(C)C)C(=O)c1ccnnc1O2 ; strain or isolate: H37Rv ; method: BACTEC ; endpoint: EC50 ; result: >12.5 µg/mL
CC(C)=CCC/C(C)=C/CNCCN1CC2(C)CC1CC(C)(C)C2 ; endpoint: MIC ; result: 12.5 µM
O=C(N/N=C/c1cccc(C(F)(F)F)c1)c1ccncc1 ; strain or isolate: Ciprofloxacin-resistant ; endpoint: MIC ; result: 0.39 µg/mL
CCOC(=O)Nc1ccccn1 ; strain or isolate: H37Rv ; endpoint: EC50 ; result: >12.5 µg/mL
C[C@H]1COc2c(N3CCN(C)CC3)c(F)cc3c(=O)c(C(=O)O)cn1c23 ; strain or isolate: CSU15 ; endpoint: MIC ; result: ≤0.125 µg/mL
CCCCCCCCCCCC(=O)NN ; endpoint: MIC ; result: >40 µg/mL
Cc1cc(/C=N/Nc2ccnc3ccc(C4CCCCC4)cc23)c(C)n1-c1ccccc1 ; strain or isolate: H37Rv ; cell line: VERO ; endpoint: MIC ; result: 6.25 µg/mL
O=C(N/N=C/c1ccccc1F)c1ccncc1 ; strain or isolate: Isoniazid-resistant ; endpoint: MIC ; result: >1.6 µg/mL
CCCCCCCN1C(=O)c2cc(Cl)nnc2Oc2ccc3ccccc3c21 ; strain or isolate: H37Rv ; method: BACTEC ; endpoint: EC50 ; result: >12.5 µg/mL
NC(=O)c1cnccn1 ; strain or isolate: Isolate H3628 (INH RIF-resistant) ; endpoint: MIC ; result: >900 µg/mL
CO[C@H]1/C=C/O[C@@]2(C)Oc3c(C)c(O)c4c(O)c(c(/C=N/N5CCN(C)CC5)c(O)c4c3C2=O)NC(=O)/C(C)=C\C=C\[C@H](C)[C@H](O)[C@@H](C)[C@@H](O)[C@@H](C)[C@H](OC(C)=O)[C@@H]1C ; strain or isolate: Isolate 3 ; endpoint: MIC ; result: >32 µg/mL
CCOC(=O)Nc1cc2[nH]c(-c3ccc(Oc4ccccc4)cc3)nc2c(N(CCc2ccccc2)Cc2ccccc2)n1 ; strain or isolate: H37Rv ; endpoint: EC50 ; result: <12.5 µg/mL
CC1COc2c(N3CCN(C)CC3)c(F)cc3c(=O)c(C(=O)O)cn1c23 ; strain or isolate: SMI 19 ; method: agar ; endpoint: MIC ; result: 0.5 µg/mL
O=c1[nH]c2ccccc2c(=O)n2cccc12 ; strain or isolate: H37Rv ; method: BACTEC ; endpoint: MIC bound ; result: >12.5 µg/mL
CCOC(=O)Nc1cc(NC(=O)OCC)c([N+](=O)[O-])c(NC(c2ccccc2)c2ccccc2)n1 ; strain or isolate: H37Rv ; endpoint: inhibition ; dose: 12.5 µg/mL ; result: 5%
C/C(=N\NC(=O)c1ccncc1)c1ccccc1 ; strain or isolate: H37Rv (ethionamide-resistant) ; endpoint: MIC ; result: 32 µg/mL
CC1(C)CC2CC(C)(CN2CCNCC(c2ccccc2)c2ccccc2)C1 ; endpoint: MIC ; result: 37.5 µM
CCOC(=O)Nc1cc2nncnc2c(NC(=O)OCC)n1 ; strain or isolate: H37Rv ; endpoint: EC50 ; result: >12.5 µg/mL
CCCCOc1ccc2nccc(NN)c2c1 ; strain or isolate: H37Rv ; cell line: VERO ; endpoint: inhibition ; dose: 12.5 µg/mL ; result: 99%
NC(=O)c1cnccn1 ; strain or isolate: M4812/NIACIN+ ; endpoint: MIC ; result: 2048 µg/mL
NC[C@H]1O[C@H](O[C@H]2[C@H](O)[C@@H](O[C@H]3O[C@H](CO)[C@@H](O)[C@H](N)[C@H]3O)[C@H](N)C[C@@H]2N)[C@H](O)[C@@H](O)[C@@H]1O ; strain or isolate: Isolate 4 ; endpoint: MIC ; result: 4 µg/mL
NC1CCN(c2c(F)cc3c(=O)c(C(=O)O)cn(C4CC4)c3c2Cl)C1 ; strain or isolate: Drug-resistant ; endpoint: MIC50 ; result: 0.125 µg/mL
O=C(O)c1cn(C2CC2)c2c(F)c(N3CCSCC3)c(F)cc2c1=O ; strain or isolate: CSU12 ; endpoint: MIC ; result: 0.5 µg/mL
NNC(=O)c1ccncc1 ; strain or isolate: PR503 ; endpoint: MIC ; result: 0.63 µg/mL
C/C=N/NC(=O)c1ccc(OCC)cc1 ; endpoint: MIC ; result: 40 µg/mL
CCOC(=O)Nc1cc2c(c(N)n1)N=C(Cc1ccccc1)C(C)N2 ; strain or isolate: H37Rv ; endpoint: EC50 ; result: <12.5 µg/mL
CCCCCCCCN1C(=O)c2ccnnc2Oc2cc(C)ccc21 ; strain or isolate: H37Rv ; method: BACTEC ; endpoint: inhibition ; dose: 12.5 µg/mL ; result: 12%
COc1cc(CNCCNCc2ccccc2)cc(OC)c1OC ; endpoint: MIC ; result: 50 µM
O=C(NNCc1ccccc1F)c1ccncc1 ; strain or isolate: Isoniazid-resistant ; endpoint: MIC ; result: >6.4 µg/mL
COc1ccc(OC)c(CCNCCNCc2ccccc2Sc2ccccc2CO)c1 ; endpoint: MIC ; result: 50 µM
C[C@H]1COc2c(N3CCN(C)CC3)c(F)cc3c(=O)c(C(=O)O)cn1c23 ; strain or isolate: Isolate 10 ; endpoint: MIC ; result: 4 µg/mL
CO[C@H]1/C=C/O[C@@]2(C)Oc3c(C)c(O)c4c(O)c(c(/C=N/N5CCN(C6CCCC6)CC5)c(O)c4c3C2=O)NC(=O)/C(C)=C\C=C\[C@H](C)[C@H](O)[C@@H](C)[C@@H](O)[C@@H](C)[C@H](O)[C@@H]1C ; strain or isolate: Isolate 900241 drug-susceptible ; endpoint: MIC ; result: 0.5 µg/mL
Clc1ccc(CCNCCNCc2cccc3ccccc23)c(Cl)c1 ; endpoint: MIC ; result: 25 µM

The first 4 rows once more:

compound	strain or isolate	changes	cell line	method	endpoint	dose	result
CO[C@H]1/C=C/O[C@@]2(C)Oc3c(C)c(O)c4c(O)c(c5c(c4c3C2=O)NC2(CCN(CC(C)C)CC2)N=5)=NC(=O)/C(C)=C\C=C\[C@H](C)[C@H](O)[C@@H](C)[C@@H](O)[C@@H](C)[C@H](OC(C)=O)[C@@H]1C	CSU15				MIC		≤0.125 µg/mL
NC[C@H]1O[C@H](O[C@H]2[C@H](O)[C@@H](O[C@H]3O[C@H](CO)[C@@H](O)[C@H](N)[C@H]3O)[C@H](N)C[C@@H]2N)[C@H](O)[C@@H](O)[C@@H]1O	TN3432 (W)				MIC		>256 µg/mL
CC[C@@H](CO)NCCN[C@@H](CC)CO	MDR7			broth dilution / resazurin	MIC		1 µg/mL
CC1COc2c(N3CCN(C)CC3)c(F)cc3c(=O)c(C(=O)O)cn1c23	001-011 (drug-resistant)				MIC		0.75 µg/mL